From publication PMC4466236, “A Novel AT-Rich DNA Recognition Mechanism for Bacterial Xenogeneic Silencer MvaT”
Tags and fusion partners may be left off the protein sequences shown.

Target: T1, MvaT full-length (UniProt Q9HW86)
T1 sequence (looked up): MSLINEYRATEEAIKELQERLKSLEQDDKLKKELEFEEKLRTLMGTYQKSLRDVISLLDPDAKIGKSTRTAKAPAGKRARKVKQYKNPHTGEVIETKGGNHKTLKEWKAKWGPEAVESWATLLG
Assay: EMSA
Conditions: apparent Kd; EMSA: 8 mM Tris pH 8.0, 15 mM HEPES pH 7.9, 40 mM NaCl, 40 mM KCl, 1.4 mM EDTA, 0.5 mM DTT, 9.95% glycerol, room temp; recombinant protein; residues 1-124; label: 5'-32P; probe letters rebuilt from the primers and the genome

Sequence: GCGAAGCCGTGGTTCGAGTTGTTGACTTGTCGCAAGACGGATTCTCCGAACAGCATCGGCGCAGCGCCCACTTGCAACGAGAGTGCGCACGCCGCCGTTGGCACTCGTCTGCGCACCGGACTTCTGAGCGGCGGCGGAAAAAGCTTGCTGCGCAAGGAGAAGCGCCTGCGGGTGAACATGGAAATTGCCCGGGAAAAGTCGACGGTAATTATTCGTTGAATAACAGGGAAGTGCATACTCCAACTTGGAAGTTAACTGCATGGCACCATCCATGCATTACACGGATGACGGTTTTTATTATAAGTCCAAACTGGCGAAGACAAGCAAGAGAGGCCGGGAT (double strand) [cupA1 promoter 340 bp]
- Kd: 0.057 µM
